Measured values from several laboratories, pooled; numbers as filed in NIAID ChemDB.

Shared fields: growth or infection tests; species: Hepatitis C virus

Percent inhibition refers to the dose given; in toxicity tests it is the harm to the cells. ECn is the concentration giving n% inhibition of infection, replication or growth. Rows are shuffled and stem from different studies. Fold resistance has wild type as its base. a–b is a range or a potency band. Blank or dashed fields: not listed here.

SMILES	endpoint	mutations	tested at	cell line	method	conditions	strain or isolate	result
NC(=S)Nc1cccc(OCCCCCOc2cccc3cnccc23)c1	EC50	-	-	Ava5-EG(delta4AB)SEAP	reporter gene / fluorescence	-	-	0.001–1 µM
CC1(C)CC[C@@]2(C(=O)NCc3cn(CCOCCn4cc(CNC(=O)[C@]56CCC(C)(C)CC5C5=CCC7[C@@]8(C)CC[C@H](O)C(C)(C)C8CC[C@@]7(C)[C@]5(C)C[C@H]6O)nn4)nn3)C(C1)C1=CCC3[C@@]4(C)CC[C@H](O)C(C)(C)C4CC[C@@]3(C)[C@]1(C)C[C@H]2O	inhibition	-	1 µM	Huh7	luciferase / entry	-	-	70.6%
CC1(C)CC[C@]2(C(=O)O)CC[C@]3(C)C(=CC[C@@H]4[C@@]5(C)CC[C@H](O)C(C)(C)[C@@H]5CC[C@]43C)[C@@H]2C1	inhibition	-	1 µM	Huh7	luciferase / entry	-	-	22.4%
COc1cccc(-c2ccccc2NC(=O)C2CCN(Cc3cc(C)c(O)c(C)c3)CC2)c1	inhibition	-	5 µM	Huh7	PCR	-	JFH-1	≥70%
NC(=S)Nc1cccc(OCCCCCOc2ccc(Br)cc2)c1	EC50	-	-	Ava5-EG(delta4AB)SEAP	reporter gene / fluorescence	-	-	0.001–1 µM
CC1CCC(C(=O)N(c2cc(C#CC(C)(C)C)sc2C(=O)O)C2CCC(O)CC2)CC1	fold resistance	M423T	-	Huh7	luciferase	-	Con1 (gt 1b)	49.6
C[C@H]1[C@H](C)CC[C@]2(C(=O)O)CC[C@]3(C)C(=CC[C@@H]4[C@@]5(C)CC[C@H](O)C(C)(C)[C@@H]5CC[C@]43C)[C@H]12	inhibition	-	1 µM	Huh7	luciferase / entry	pseudotyped	-	2.8%
CCn1cc(CNC(=O)[C@]23CCC(C)(C)CC2C2=CCC4[C@@]5(C)CC[C@H](O)C(C)(C)C5CC[C@@]4(C)[C@]2(C)C[C@H]3O)nn1	inhibition	-	1 µM	Huh7	luciferase / entry	-	-	0.5%
COc1cccc(CN2CCC(C(=O)Nc3ccc(Oc4ccccc4F)cc3)CC2)c1O	inhibition	-	5 µM	Huh7	PCR	-	JFH-1	≥40%
CCN(CC)c1ccc(OCCCCCOc2cccc(NC(N)=S)c2)cc1	EC50	-	-	Ava5-EG(delta4AB)SEAP	reporter gene / fluorescence	-	-	0.001–1 µM
COc1cccc(-c2ccccc2NC(=O)C2CCN(Cc3cccc4cccnc34)CC2)c1	inhibition	-	5 µM	Huh7	PCR	-	JFH-1	≥70%
O=C(N[C@@H](C(=O)N1CCC[C@H]1c1ncc(-c2ccc(-c3ccc(-c4cnc([C@@H]5CCCN5C(=O)[C@H](NC(=O)C5CC5)c5ccccc5)s4)cc3)cc2)s1)c1ccccc1)C1CC1	fold resistance	M265V	-	Huh7.5	luciferase / reporter gene	-	genotype 1b	1
CC1(C)CC[C@@]2(C(=O)NCc3cn(CCOCCOCCOCCn4cc(CNC(=O)[C@]56CCC(C)(C)CC5C5=CCC7[C@@]8(C)CC[C@H](O)C(C)(C)C8CC[C@@]7(C)[C@]5(C)C[C@H]6O)nn4)nn3)C(C1)C1=CCC3[C@@]4(C)CC[C@H](O)C(C)(C)C4CC[C@@]3(C)[C@]1(C)C[C@H]2O	inhibition	-	5 µM	Huh7	luciferase / entry	-	-	91.9%
O=C(Nc1cccc(-c2ccn[nH]2)c1)C1CCN(Cc2cccc3ccccc23)CC1	inhibition	-	15 µM	Huh7	PCR	-	JFH-1	<40%

Repeating the first 2 entries:

SMILES,endpoint,mutations,tested at,cell line,method,conditions,strain or isolate,result
NC(=S)Nc1cccc(OCCCCCOc2cccc3cnccc23)c1,EC50,-,-,Ava5-EG(delta4AB)SEAP,reporter gene / fluorescence,-,-,0.001–1 µM
CC1(C)CC[C@@]2(C(=O)NCc3cn(CCOCCn4cc(CNC(=O)[C@]56CCC(C)(C)CC5C5=CCC7[C@@]8(C)CC[C@H](O)C(C)(C)C8CC[C@@]7(C)[C@]5(C)C[C@H]6O)nn4)nn3)C(C1)C1=CCC3[C@@]4(C)CC[C@H](O)C(C)(C)C4CC[C@@]3(C)[C@]1(C)C[C@H]2O,inhibition,-,1 µM,Huh7,luciferase / entry,-,-,70.6%